A mixed list of measured activities; the numbers were collected in NIAID ChemDB.

All rows: growth or infection tests; species: Mycobacterium avium complex; endpoint: MIC

Rows are shuffled and stem from different studies.

Cc1c(CNc2ccc(Cl)c3ccccc23)cnc2nc(N)nc(N)c12 ; strain: NJ211 ; result: ≤0.13 µg/mL
Cc1cccc(CSc2ccncc2)c1 ; strain: NJ211 ; result: >12.8 µg/mL
C/C(=N\NC(N)=S)c1cccnc1 ; strain: 109 ; result: 0.5 µg/mL
Nc1ccc(S(=O)(=O)c2ccc(N)cc2)cc1 ; strain: DW9 ; result: 64 µg/mL
COc1ccc(CSc2ccncc2)cc1 ; strain: NJ211 ; result: >12.8 µg/mL
CCCCCCCCC(=O)O[C@H]1[C@H](C)OC(O[C@H]2[C@H](C)[C@@H](O[C@@H]3O[C@H](C)C[C@H](N(C)C)[C@H]3O)C(C)(O)C[C@@H](C)/C(=N\OCCCOc3ccccc3)[C@H](C)[C@@H](O)[C@](C)(O)[C@@H](CC)OC(=O)[C@@H]2C)C[C@@]1(C)OC ; strain: 20092 (clarithromycin-resistant) ; result: 6.25 µg/mL
Cc1cccc(CSc2ncnc3nc[nH]c23)c1 ; strain: NJ211 ; result: >12.8 µg/mL
Cc1c(CNc2cccc3ncccc23)cnc2nc(N)nc(N)c12 ; strain: NJ168 ; result: ≤0.13 µg/mL
CC1(C)N=C(N)N=C(N)N1OCCCOc1cc(Cl)c(Cl)cc1Cl ; strain: DW27 ; result: 2 µg/mL
CC[C@H]1OC(=O)[C@H](C)[C@@H](O[C@H]2C[C@@](C)(OC)[C@@H](O)[C@H](C)O2)[C@H](C)[C@@H](O[C@@H]2O[C@H](C)C[C@H](N(C)C)[C@H]2O)[C@](C)(OC)C[C@@H](C)C(=O)[C@H](C)[C@@H](O)[C@]1(C)O ; strain: N-979 (HIV+) ; result: 2 µg/mL
Cc1c(CNc2cc(C(F)(F)F)ccc2Br)cnc2nc(N)nc(N)c12 ; strain: NJ168 ; result: ≤0.13 µg/mL
O=c1nc(SCc2ccc(Cl)cc2[N+](=O)[O-])c2[nH]cnc2[nH]1 ; strain: NJ211 ; result: >12.8 µg/mL
CCCCCCCCO/N=C1\[C@H](C)CC(C)(O)[C@H](O[C@@H]2O[C@H](C)C[C@H](N(C)C)[C@H]2O)[C@@H](C)[C@H](OC2C[C@@](C)(OC)[C@@H](O)[C@H](C)O2)[C@@H](C)C(=O)O[C@H](CC)[C@@](C)(O)[C@H](O)[C@H]1C ; strain: 20039 (clarithromycin-susceptible) ; result: 3.13 µg/mL
CC1(C)N=C(N)N=C(N)N1OCCCOc1cc(Cl)c(Cl)cc1Cl ; strain: 1409 ; result: 1 µg/mL
CO[C@H]1/C=C/O[C@@]2(C)Oc3c(C)c(O)c4c(O)c(c5c(c4c3C2=O)NC2(CCN(CC(C)C)CC2)N=5)=NC(=O)/C(C)=C\C=C\[C@H](C)[C@H](O)[C@@H](C)[C@@H](O)[C@@H](C)[C@H](OC(C)=O)[C@@H]1C ; strain: N-981 (HIV+) ; result: 0.25 µg/mL
CC[C@H]1OC(=O)[C@H](C)[C@@H](O[C@H]2C[C@@](C)(OC)[C@@H](OC(C)=O)[C@H](C)O2)[C@H](C)[C@@H](O[C@@H]2O[C@H](C)C[C@H](N(C)C)[C@H]2OC(=O)NNCc2cccc(OC)c2)C(C)(O)C[C@@H](C)/C(=N\OCCCC2CCCCC2)[C@H](C)[C@@H](O)[C@]1(C)O ; strain: 20092 (clarithromycin-resistant) ; result: 0.78 µg/mL
Cc1c(CNc2ccc3c4c(cccc24)-c2ccccc2-3)cnc2nc(N)nc(N)c12 ; strain: NJ3404 ; result: ≤0.13 µg/mL
CC[C@H]1OC(=O)[C@H](C)[C@@H](OC(=O)Cc2ccccc2)[C@H](C)[C@@H](O[C@@H]2O[C@H](C)C[C@H](N(C)C)[C@H]2O)C(C)(O)C[C@@H](C)/C(=N\OCCCOc2ccccc2)[C@H](C)[C@@H](O)[C@]1(C)O ; strain: 20039 (clarithromycin-susceptible) ; result: 3.13 µg/mL
NNC(=O)c1ccncc1 ; strain: N-979 (HIV+) ; result: 1 µg/mL
O=c1nc(SCc2cccc(Br)c2)c2[nH]cnc2[nH]1 ; strain: NJ211 ; result: >12.8 µg/mL
CCOc1ccc(OCC)c(N(C)Cc2cnc3nc(N)nc(N)c3c2C)c1 ; strain: NJ3404 ; result: ≤0.13 µg/mL
CO[C@H]1/C=C/O[C@@]2(C)Oc3c(C)c(O)c4c(=O)c(c5oc6cc(N7CCN(CC(C)C)CC7)cc(=O)c6nc5c4c3=C2O)NC(=O)/C(C)=C\C=C\[C@H](C)[C@H](O)[C@@H](C)[C@@H](O)[C@@H](C)[C@H](OC(C)=O)[C@@H]1C ; strain: N-319 (HIV-) ; result: 0.1 µg/mL

For reference, 2 entries again:

smiles	strain	result
CC[C@H]1OC(=O)[C@H](C)[C@@H](OC(=O)Cc2ccccc2)[C@H](C)[C@@H](O[C@@H]2O[C@H](C)C[C@H](N(C)C)[C@H]2O)C(C)(O)C[C@@H](C)/C(=N\OCCCOc2ccccc2)[C@H](C)[C@@H](O)[C@]1(C)O	20039 (clarithromycin-susceptible)	3.13 µg/mL
Nc1ccc(S(=O)(=O)c2ccc(N)cc2)cc1	DW9	64 µg/mL